Measured values from several laboratories, pooled; numbers as filed in NIAID ChemDB.

Common to all: growth or infection tests; species: Herpes simplex virus 1; cell line: VERO; read-out: EC50

Rows are shuffled and stem from different studies. ECn is the concentration giving n% inhibition of infection, replication or growth. An empty or dashed field is not shown.

smiles,strain,method,result
COC(=O)[C@H](C)NP(=O)(OC[C@H]1C/C1=C\n1cnc2c(N)nc(N)nc21)Oc1ccccc1,-,plaque count,>100 µM
O=c1[nH]c(=O)n([C@H]2O[C@@H](CO)C[C@H]2F)cc1Cl,-,-,>51 µM
C[C@H]1O[C@@H](O[C@H]2[C@@H](O)C[C@H](O[C@H]3[C@@H](O)C[C@H](O[C@H]4CC[C@@]5(C)[C@H](CC[C@@H]6[C@@H]5CC[C@]5(C)[C@@H](C7=CC(=O)OC7)CC[C@]65O)C4)O[C@@H]3C)O[C@@H]2C)C[C@H](O)[C@@H]1O,KOS,plaque count,0.34 µM
Nc1nc2c(ncn2COCCO)c(=O)[nH]1,BRAND,cytopathic effect,>0.01 µM
COC(=O)[C@H](C)NP(=O)(OC[C@H]1C/C1=C/n1cnc2c(OC)nc(N)nc21)Oc1ccccc1,-,plaque count,0.6 µM
C[C@H]1O[C@@H](O[C@H]2CC[C@]3(C=O)[C@H]4CC[C@]5(C)[C@@H](C6=CC(=O)OC6)CC[C@]5(O)[C@@H]4CC[C@]3(O)C2)C[C@H](O)[C@@H]1O,29R,plaque count,0.11 µM
Nc1nc(NC2CC2)c2ncn(C=C3CC3CO)c2n1,-,plaque count,31 µM
O=c1[nH]cnc2c1ncn2[C@H]1O[C@@H](CO)C[C@H]1F,-,-,>100 µM
O=C(O)P(=O)(O)O,TK-,cytopathic effect,>79.4 µM
Cc1cccc2c1OP(=O)(OC[C@H]1O[C@@H](n3cc(/C=C/Br)c(=O)[nH]c3=O)C[C@@H]1OC(=O)C(C)(C)C)OC2,B2006 (TK-),plaque count,>128 µg/mL
C[C@H]1O[C@@H](O[C@H]2CC[C@@]3(C)[C@H](CC[C@@H]4[C@@H]3CC[C@]3(C)[C@@H](C5=CC(=O)OC5)C(O)C[C@]43O)C2)C[C@H](O)[C@@H]1O[C@@H]1O[C@H](CO)[C@@H](O)[C@H](O)[C@H]1O,29R,plaque count,0.6 µM
[N-]=[N+]=CC(=O)CC[C@H](N)C(=O)O,MacIntyre,plaque count,8 µM
CCOC(=O)P(=O)(OCCOCn1cnc2c(=O)[nH]c(N)nc21)OC(C)C,L2/R,cytopathic effect,149 µM
CCCCCC#Cc1cn(COCCO)c(=O)[nH]c1=O,F,plaque count,>100 µM
Cc1cccc2c1OP(=O)(OC[C@H]1O[C@@H](n3cc(/C=C/Br)c(=O)[nH]c3=O)C[C@@H]1OC(=O)[C@H]1CCCN1)OC2,KUPKA (TK+),plaque count,0.23 µg/mL
CO[C@H]1C[C@H](O[C@H]2CC[C@]3(C=O)[C@H]4CC[C@]5(C)[C@@H](C6=CC(=O)OC6)CC[C@]5(O)[C@H]4CC[C@]3(O)C2)O[C@H](C)[C@H]1O,29R,plaque count,0.13 µM
Nc1nc2c(ncn2CCC(CO)COP2(=O)OCc3ccccc3O2)c(=O)[nH]1,B2006 (TK-),cytopathic effect,108 µM
CCc1cn([C@H]2C[C@H](O)[C@@H](CO)S2)c(=O)[nH]c1=O,L2 acyclovir-susceptible,cytopathic effect,1.1 µM
CC[C@H](C)[C@H](N)C(=O)O[C@H]1C[C@H](n2cc(/C=C/Br)c(=O)[nH]c2=O)O[C@@H]1COP1(=O)OCc2cccc(C)c2O1,B2006 (TK-),plaque count,>128 µg/mL
CO[C@H]1[C@@H](O)C[C@H](O[C@H]2[C@@H](O)C[C@H](O[C@H]3[C@@H](O)C[C@H](O[C@H]4CC[C@@]5(C)[C@H](CC[C@@H]6[C@@H]5CC[C@]5(C)[C@@H](C7=CC(=O)OC7)CC[C@]65O)C4)O[C@@H]3C)O[C@@H]2C)O[C@@H]1C,KOS,plaque count,0.14 µM
Cc1cn([C@H]2O[C@@H](CO)C[C@H]2F)c(=O)[nH]c1=O,-,-,>100 µM
C[C@H]1O[C@@H](O[C@H]2CC[C@@]3(C)[C@H](CC[C@@H]4[C@@H]3CC[C@]3(C)[C@@H](C5=CC(=O)OC5)CC[C@]43O)C2)C[C@H](O)[C@@H]1O[C@@H]1O[C@H](CO)[C@@H](O)[C@H](O)[C@H]1O,29R,plaque count,0.06 µM
CCCCCCCCc1cc2cn(CC=C(CO)CO)c(=O)nc2o1,F,plaque count,7.3 µM
C[C@H](N)C(=O)O[C@H]1C[C@H](n2cc(/C=C/Br)c(=O)[nH]c2=O)O[C@@H]1COP1(=O)OCc2ccccc2O1,B2006 (TK-),plaque count,>128 µg/mL
Cc1ccc2c(c1)COP(=O)(OCCOCn1cnc3c(=O)[nH]c(N)nc31)O2,B2006 (TK-),cytopathic effect,1.69 µM
CC(=O)CCC(=O)O[C@H]1C[C@H](n2cc(/C=C/Br)c(=O)[nH]c2=O)O[C@@H]1COP1(=O)OCc2ccccc2O1,B2006 (TK-),plaque count,>128 µg/mL
CCCCCc1ccc(C#Cc2cn(COCCO)c(=O)[nH]c2=O)cc1,F,plaque count,>10 µM
CCOC(=O)P(=O)(O)OC[C@H]1O[C@@H](n2cc(CCCl)c(=O)[nH]c2=O)C[C@@H]1O,BRAND,cytopathic effect,>23.4 µM
CC(=O)OCC(CCn1cnc2c(=O)[nH]c(N)nc21)COP1(=O)OCc2cccc(C)c2O1,B2006 (TK-),cytopathic effect,119 µM
CC(C)(C)c1cccc2c1OP(=O)(OC[C@H]1O[C@@H](n3cc(/C=C/Br)c(=O)[nH]c3=O)C[C@@H]1O)OC2,KUPKA (TK+),plaque count,0.67 µg/mL
Nc1nc2c(ncn2[C@H]2O[C@@H](CO)C[C@@H]2F)c(=O)[nH]1,-,-,>100 µM
O=C(C=Cc1ccc(O)c(O)c1)O[C@@H]1C[C@](O)(C(=O)O)C[C@@H](O)[C@H]1O,-,cytopathic effect,>512 µg/mL
C[C@H]1O[C@@H](O[C@H]2[C@@H](O)C[C@H](O[C@H]3CC[C@@]4(C)[C@H](CC[C@@H]5[C@@H]4C[C@@H](O)[C@]4(C)[C@@H](C6=CC(=O)OC6)CC[C@]54O)C3)O[C@@H]2C)C[C@H](O)[C@@H]1O,29R,plaque count,0.22 µM
CC(=O)O[C@H]1C[C@H](n2cc(/C=C/Br)c(=O)[nH]c2=O)O[C@@H]1COP1(=O)OCc2ccccc2O1,B2006 (TK-),plaque count,>128 µg/mL
CCOC(=O)P(=O)(OC)OC[C@H]1O[C@@H](n2cc(I)c(=O)[nH]c2=O)C[C@@H]1O,TK-,cytopathic effect,>19.8 µM
O=c1nc2oc(-c3ccccc3)cc2cn1COCCO,F,plaque count,>100 µM
Cc1cccc2c1OP(=O)(OC[C@H]1O[C@@H](n3cc(/C=C/Br)c(=O)[nH]c3=O)C[C@@H]1OC(=O)CN)OC2,B2006 (TK-),plaque count,>128 µg/mL
CCCCCCCCc1cc2cn(C/C=C/C(O)CO)c(=O)nc2o1,F,plaque count,>10 µM
Cc1c(CC(=O)O)ccc(O)c1O,-,cytopathic effect,9.6 µg/mL
Nc1nc2c(ncn2CCC(CO)CO)c(=O)[nH]1,KUPKA,cytopathic effect,1.15 µM
O=c1[nH]c(=O)n([C@H]2O[C@@H](CO)C[C@H]2F)cc1I,-,-,>100 µM
COC(=O)P(=O)(O)OC[C@H]1O[C@@H](n2cc(CCCl)c(=O)[nH]c2=O)C[C@@H]1O,BRAND,cytopathic effect,>24.2 µM
C[C@]12CC[C@H]3[C@@H](CC[C@]4(O)C[C@@H](O[C@@H]5O[C@@H](O)[C@H](O)[C@@H](O)[C@H]5O)CC[C@]34C=O)[C@@]1(O)CC[C@@H]2C1=CC(=O)OC1,KOS,plaque count,0.02 µM
O=c1[nH]c(=O)n([C@H]2O[C@@H](CO)C[C@H]2F)cc1F,-,-,>100 µM

2 of the rows above, restated:

smiles,strain,method,result
Nc1nc(NC2CC2)c2ncn(C=C3CC3CO)c2n1,-,plaque count,31 µM
Cc1cccc2c1OP(=O)(OC[C@H]1O[C@@H](n3cc(/C=C/Br)c(=O)[nH]c3=O)C[C@@H]1OC(=O)CN)OC2,B2006 (TK-),plaque count,>128 µg/mL